# Test results taken from patent US5153181A, “Pharmaceutical compositions comprising organic polymers containing inorganic anionic groups and method of prophylaxis and treatment of retrovirus infections in mammals using said compositions” (priority 1986, dated 1992).
# System: SR-D-associated reverse transcriptase
# Assay type: biochemical
# Settings: FIGS. 1A and B
structure (smiles),measurement,setting,value
O=C(O)P(=O)(O)O [foscarnet],Efficiency index 90% (inhibition derived from FIG. 1),LD50/inhibitor concentration blocking 90% of the polymerase activity,25
same,Efficiency index 99% (inhibition derived from FIG. 1),LD50/inhibitor concentration blocking 99% of the polymerase activity,1
